A mixed list of measured activities; the numbers were collected in NIAID ChemDB.

All rows: whole-cell or culture tests; agent: HIV-1; endpoint: EC50

Rows are shuffled and stem from different studies. Blank or dashed fields: not listed here. a–b is a range or a potency band. ECn: concentration that inhibits the pathogen or its effect by n%.

| compound | cells | strain | method | mutations | value |
|---|---|---|---|---|---|
| O=C(Cc1cn([C@H]2C=C[C@@H](CO)O2)c(=O)[nH]c1=O)NCCCCCCCCNC(=O)c1c2ccccc2nc2ccccc12 | MT-4 | IIIB | - | - | >10 µM |
| CC(C)[C@H](NC(=O)[C@H](Cc1cccc2ccccc12)CS(=O)(=O)C(C)(C)C)C(=O)N[C@@H](Cc1ccccc1)[C@@H](O)CN1C[C@@H]2CCCC[C@@H]2C[C@H]1C(F)(F)F | PBL | - | - | - | >1 µM |
| CCOC(=O)c1cc2c3cc(OC)ccc3c3ccc(N=[N+]=[N-])cc3n2c1C | MT-4 | - | cytopathic effect / MTT | - | >300 µM |
| NCCCc1cn([C@H]2C=C[C@@H](CO)O2)c(=O)[nH]c1=O | MT-4 | IIIB | - | - | >1000 µM |
| NCCCCCCCCCCCCNC(=O)Cc1cn([C@@H]2C=C[C@H](CO)O2)c(=O)[nH]c1=O | CEM + CEM-SS | LAI | cytopathic effect / MTT | - | 4.4 µM |
| CCOC(=O)c1c(Br)c2c3ccccc3c3ccccc3n2c1C | MT-4 | - | cytopathic effect / MTT | - | >300 µM |
| O=c1[nH]c(=O)n([C@@H]2C=C[C@H](CO)O2)cc1CCO | MT-4 | IIIB | - | - | >100 µM |
| CCOC(=O)c1cc2c3cc(OC)ccc3c3c(N)cccc3n2c1C | MT-4 | - | cytopathic effect / MTT | - | >200 µM |
| CCN1c2ncc(CCOc3ccc(S(=O)(=O)NCC(=O)O)cc3C)cc2C(=O)N(C)c2cccnc21 | C8166 | - | p24 | RT-K103N Y181C | >0.05 µM |
| Cc1cn([C@H]2C=C[C@@H](CO)O2)c(=O)n(CCCN2CCN(CCNC(=S)Nc3ccc(Br)cn3)CC2)c1=O | CEM + CEM-SS | IIIB | RT activity | - | >100 µM |
| CCN1c2ncc(CCOc3ccc(-c4ccncc4)cc3C)cc2C(=O)N(C)c2cccnc21 | C8166 | IIIB | p24 | - | <0.01 µM |
| CC(C)[C@H](NC(=O)[C@H](Cc1cccc2ccccc12)CS(=O)(=O)C(C)(C)C)C(=O)N[C@@H](Cc1ccccc1)[C@@H](O)CN1CCc2ccccc2[C@H]1C(F)(F)F | PBL | - | - | - | >1 µM |
| O=C(NCCCc1cn([C@H]2C=C[C@@H](CO)O2)c(=O)[nH]c1=O)C(F)(F)F | MT-4 | IIIB | - | - | >100 µM |
| Cc1cn([C@H]2C=C[C@@H](CO)O2)c(=O)[nH]c1=O | PBMC | IIIB | RT activity | - | 0.05 µM |
| O=C(Cc1cn([C@H]2C=C[C@@H](CO)O2)c(=O)[nH]c1=O)NCCCCCCCCCCNC(=O)c1c2ccccc2nc2ccccc12 | MT-4 | IIIB | - | - | >10 µM |
| O=C(O)C(O)c1ccccc1 | MT-2 | IIIS | syncytia | - | 0.3 µg/mL |
| CCOC(=O)c1cc(-c2cccc(N)c2)n(-c2cccc(OC)c2)c1C | MT-4 | - | cytopathic effect / MTT | - | >32 µM |
| O=c1ccn([C@H]2C=C[C@@H](CO)O2)c(=O)n1CCOCCN1CCN(CCNC(=S)Nc2ccc(Br)cn2)CC1 | CEM + CEM-SS | IIIB | RT activity | - | >100 µM |
| COC(=O)[C@H](C)NP(=O)(OC[C@H]1C=C[C@@H](n2cc(CC(=O)NCCCCCCCCCCCCNC(=O)C(F)(F)F)c(=O)[nH]c2=O)O1)Oc1ccccc1 | MT-4 | IIIB | - | - | 10 µM |
| CCN1c2ncc(CCOc3ccc(Nc4ccccn4)cc3C)cc2C(=O)N(C)c2cccnc21 | C8166 | - | p24 | RT-K103N Y181C | <0.01 µM |
| CCOC(=O)c1cc(-c2cccc(N)c2)n(-c2ccccc2)c1C | MT-4 | - | cytopathic effect / MTT | - | >300 µM |
| CC(C)[C@H](NC(=O)[C@H](Cc1cccc2ccccc12)CS(=O)(=O)C(C)(C)C)C(=O)N[C@@H](Cc1ccccc1)[C@@H](O)CN1[C@H](C)CC[C@H]1C(F)(F)F | PBL | - | - | - | 0.547 µM |
| NCCCCCCCCCCNC(=O)Cc1cn([C@H]2C=C[C@@H](CO)O2)c(=O)[nH]c1=O | CEM + CEM-SS | LAI | cytopathic effect / MTT | - | 75 µM |
| CC(=O)c1cc(-c2cccc([N+](=O)[O-])c2)n(-c2ccccc2)c1C | MT-4 | - | cytopathic effect / MTT | - | >300 µM |
| O=c1ccn([C@H]2C=C[C@@H](CO)O2)c(=O)n1CC#CCN1CCN(CCNC(=S)Nc2ccc(Br)cn2)CC1 | MT-4 | IIIB | RT activity | - | >100 µM |
| CCOC(=O)c1cc(-c2ccccc2)n(-c2cccc(N=[N+]=[N-])c2)c1C | MT-4 | - | cytopathic effect / MTT | - | >176 µM |
| CC(C)[C@H](NC(=O)[C@H](Cc1cccc2ccccc12)CS(=O)(=O)C(C)(C)C)C(=O)N[C@@H](Cc1ccccc1)[C@@H](O)CN1CCC[C@H]1C(F)(F)F | PBL | - | - | - | 0.558 µM |
| Cc1cn([C@H]2C=C[C@@H](CO)O2)c(=O)n(CCCCCCN2CCN(CCNC(=S)Nc3ccc(Br)cn3)CC2)c1=O | CEM + CEM-SS | IIIB | RT activity | - | 10 µM |
| COC(=O)[C@H](C)NP(=O)(OC[C@@H]1C=C[C@H](n2cc(CC(=O)NCCCCCCNC(=O)C(F)(F)F)c(=O)[nH]c2=O)O1)Oc1ccccc1 | CEM | LAI | RT activity | - | >10 µM |
| CC(C)[C@H](NC(=O)[C@H](Cc1cccc2ccccc12)CS(=O)(=O)C(C)(C)C)C(=O)N[C@@H](Cc1ccccc1)[C@@H](O)CN1CC[C@H]2CCCC[C@H]2[C@H]1C(F)(F)F | PBL | - | - | - | >2.545 µM |
| NCCCCCCNC(=O)Cc1cn([C@@H]2C=C[C@H](CO)O2)c(=O)[nH]c1=O | CEM + CEM-SS | LAI | cytopathic effect / MTT | - | >10 µM |
| COC(=O)Cc1cn([C@H]2C=C[C@@H](COP(=O)(N[C@@H](C)C(=O)OC)Oc3ccccc3)O2)c(=O)[nH]c1=O | MT-4 | IIIB | - | - | 100 µM |
| CCN1c2ncc(CCOc3ccc(C(=O)Nc4nc(CC(=O)O)cs4)cc3C)cc2C(=O)N(C)c2cccnc21 | C8166 | IIIB | p24 | - | 0.01–0.05 µM |
| COc1cccc(-c2cc(C(C)=O)c(C)n2-c2cccc(N=[N+]=[N-])c2)c1 | MT-4 | - | cytopathic effect / MTT | - | >8.7 µM |
| Nn1ccnc1 | - | NL4-3 | - | - | 0.2–4 µg/mL |
| COC(=O)[C@H](C)NP(=O)(OC[C@@H]1C=C[C@H](n2cc(CC(=O)NCCCCCCCCCCNC(=O)C(F)(F)F)c(=O)[nH]c2=O)O1)Oc1ccccc1 | MT-4 | IIIB | - | - | >10 µM |
| Cc1cn([C@H]2C=C[C@@H](CO)O2)c(=O)[nH]c1=O | CEM + CEM-SS | LAI | cytopathic effect / MTT | - | 0.059 µM |
| CCOC(=O)c1cc2c3cccc(N)c3c3ccc(OC)cc3n2c1C | MT-4 | - | cytopathic effect / MTT | - | >200 µM |

Repeating the final 3 entries:

compound,cells,strain,method,mutations,value
COC(=O)[C@H](C)NP(=O)(OC[C@@H]1C=C[C@H](n2cc(CC(=O)NCCCCCCCCCCNC(=O)C(F)(F)F)c(=O)[nH]c2=O)O1)Oc1ccccc1,MT-4,IIIB,-,-,>10 µM
Cc1cn([C@H]2C=C[C@@H](CO)O2)c(=O)[nH]c1=O,CEM + CEM-SS,LAI,cytopathic effect / MTT,-,0.059 µM
CCOC(=O)c1cc2c3cccc(N)c3c3ccc(OC)cc3n2c1C,MT-4,-,cytopathic effect / MTT,-,>200 µM